Among the data in paper PMC8775380, “A Complexed Crystal Structure of a Single-Stranded DNA-Binding Protein with Quercetin and the Structural Basis of Flavonol Inhibition Specificity” (International Journal of Molecular Sciences, 2022) are IC50 values, retold here.

For the series, the target named is T1, PaSSB (single-stranded DNA-binding protein) (Pseudomonas aeruginosa) (UniProt P40947).
T1 sequence (looked up, limits assumed): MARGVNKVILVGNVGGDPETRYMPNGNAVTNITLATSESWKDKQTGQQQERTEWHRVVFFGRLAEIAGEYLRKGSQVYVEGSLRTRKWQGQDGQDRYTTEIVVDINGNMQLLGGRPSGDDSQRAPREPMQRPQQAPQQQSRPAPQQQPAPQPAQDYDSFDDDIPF
Put plainly: EMSA (inhibition). As to conditions: myricetin 0-100 uM (IC50 is of myricetin), 1.25 uM PaSSB, EMSA: 40 mM Tris-HCl pH 7.5, 50 mM NaCl, 37 °C 60 min, DNA 30 fmol/uL, PaSSB 0-5 uM, 8% native PAGE in TBE, flavonols dissolved in 10% DMSO, recombinant protein, label: biotin (3' in Results, 5' in Methods). In general terms: Mobility shift assays separate free from complexed probe on a gel.

For at least one entry, the source does not settle the construct or the ends of the probe. Where a protein sequence is shown, tags need not be part of it.

For the sequence “TTTTTTTTTTTTTTTTTTTTTTTTTTTTTTTTTTT [dT35]”, the half-inhibitory concentration (IC50) worked out at 2800 nM.

Broadly, the IC50 is the concentration that inhibits the measured activity by half.
